A mixed list of measured activities; the numbers were collected in NIAID ChemDB.

All rows: growth or infection tests; species: HIV-2; method: cytopathic effect / MTT; read-out: EC50

Blank or dashed fields: not listed here.

{"compound": "Cc1cn([C@H]2C[C@H](N=[N+]=[N-])[C@@H](CO)O2)c(=O)[nH]c1=O", "cells": "CEM-T4 + CEM", "strain": "MS", "value": "0.0002 µg/mL"}
{"compound": "Nc1ncnc2c1ncn2CCOCP(=O)(O)O", "cells": "CEM", "value": "6 µM"}
{"compound": "CO[C@@H]1[C@@H](O)[C@@H](O)[C@H](O)[C@H](O)[C@H]1n1cnc2c(N)ncnc21", "cells": "MT-4", "value": ">10 µg/mL"}
{"compound": "C=C1C[C@@H](n2cnc3c(N)ncnc32)[C@@H]1CO", "cells": "MT-4", "strain": "ROD", "value": ">100 µM"}
{"compound": "COC(=O)[C@H](CCSC)NC(=O)COc1ccc2ccc(O[C@H]3O[C@H](C4COC(C)(C)O4)[C@@H]4OC(C)(C)O[C@H]34)cc2c1", "cells": "MT-4", "strain": "ROD", "value": ">45 µg/mL"}
{"compound": "CCOCn1c(Sc2ccccc2)c(CC)c(=O)[nH]c1=O", "cells": "MT-4", "strain": "ROD", "value": ">100 µM"}
{"compound": "CC(=O)N1C(=O)C(=Nc2ccc(S(=O)(=O)Nc3nc(C)cc(C)n3)cc2)c2ccccc21", "cells": "MT-4", "strain": "ROD", "value": "90.9 µg/mL"}
{"compound": "CCc1c(Sc2ccccc2)nc(SCC(=O)c2ccc(OC)cc2)[nH]c1=O", "cells": "MT-4", "strain": "ROD", "value": ">181 µM"}
{"compound": "Nc1ccn([C@H]2CC[C@@H](CO)O2)c(=O)n1", "cells": "MT-4", "strain": "ROD", "value": ">0.09 µg/mL"}
{"compound": "Fc1cccc(F)c1C1SCc2nc3ccccc3n21", "cells": "MT-4", "strain": "ROD", "value": ">48.6 µM"}
{"compound": "OC[C@H]1N[C@H](CO)[C@@H](O)[C@@H]1O", "cells": "MT-4", "strain": "ROD", "value": ">250 µg/mL"}
{"compound": "Cc1cn([C@H]2C[C@H](N=[N+]=[N-])[C@@H](CO)O2)c(=O)[nH]c1=O", "cells": "MT-4", "strain": "ROD", "value": "0.014 µg/mL"}
{"compound": "c1ccc(C2OCc3nc4ccccc4n32)cc1", "cells": "MT-4", "strain": "ROD", "value": ">16.9 µM"}
{"compound": "CCn1cc(C(=O)O)c(=O)c2cc(F)c(N3CCN(c4ccccc4OC)CC3)c(OC(F)F)c21", "cells": "MT-4", "strain": "EHO", "value": "0.39 µM"}
{"compound": "CO[C@H]1[C@@H](O)[C@H](n2cnc3c(N)ncnc32)[C@@H](O)[C@H](O)[C@@H]1O", "cells": "MT-4", "value": "<10 µg/mL"}
{"compound": "Nc1ncnc2c1ncn2C1CC(CO)(CO)C1", "cells": "MT-4", "strain": "ROD", "value": ">500 µM"}
{"compound": "O=c1[nH]cnc2c1ncn2[C@H]1CC[C@@H](CO)O1", "cells": "MT-4", "strain": "ROD", "setting": "0% human serum", "value": "2.71 µM"}
{"compound": "Cc1cn([C@H]2C[C@H](N=[N+]=[N-])[C@@H](CO)O2)c(=O)[nH]c1=O", "cells": "MT-4", "strain": "ROD", "value": "0.106 µM"}
{"compound": "FC(F)(F)c1ccc2c(c1)nc1n2C(c2c(Cl)cccc2Cl)SC1", "cells": "MT-4", "strain": "ROD", "value": ">25.9 µM"}
{"compound": "CC(C)(C)OC(=O)[C@@H]1CCCN1C[C@@H](O)[C@H](Cc1ccccc1)NC(=O)[C@H](CC(N)=O)NC(=O)OCc1ccccc1", "cells": "MT-4", "strain": "ROD", "value": "10.9 µg/mL"}
{"compound": "O=C(c1ccccc1)c1ccc2nc3n(c2c1)C(c1c(F)cccc1Cl)SC3", "cells": "MT-4", "strain": "ROD", "value": ">1.2 µM"}
{"compound": "Cc1cn([C@@H]2C[C@@H](N=[N+]=[N-])[C@H](COC(=O)NCCCCNC(=O)OC[C@H]3O[C@@H](n4cc(C)c(=O)[nH]c4=O)C[C@@H]3N=[N+]=[N-])O2)c(=O)[nH]c1=O", "cells": "MT-4", "strain": "ROD", "value": "2.58 µM"}
{"compound": "Fc1cccc(F)c1C1SCc2nc3ccccc3n21", "cells": "MT-4", "strain": "ROD", "value": ">48.6 µM"}
{"compound": "C1CNCCNCC(CCOCCOCCC2CNCCNCCCNCCNC2)CNCCNC1", "cells": "MT-4", "strain": "ROD", "setting": "5 d", "value": "34 µM"}
{"compound": "Cc1cccc2c1nc1n2C(c2c(F)cccc2Cl)SC1", "cells": "MT-4", "strain": "ROD", "value": ">392 µM"}
{"compound": "COc1ccc(Cc2nccc3cc(OC)c(OC)cc23)cc1OC", "cells": "MT-4", "strain": "ROD", "value": ">2 µg/mL"}
{"compound": "C=CCN1C(=O)c2cccn2S(=O)(=O)c2cc(Cl)ccc21", "cells": "MT-4", "value": ">100 µM"}
{"compound": "CCCN(C)C(=O)Oc1nsnc1-c1c(Cl)ccc(N)c1Cl", "cells": "MT-4", "strain": "EHO", "value": ">18 µM"}
{"compound": "CC(C)[C@H](NC(=O)[C@H](CCCN=C(N)N)NC(=O)N[C@@H](Cc1ccccc1)C(=O)O)C(=O)N[C@@H](C=O)Cc1ccccc1", "cells": "MT-4", "strain": "ROD", "value": ">10 µM"}
{"compound": "CC(C)N1C(=O)c2cccn2S(=O)(=O)c2ccccc21", "cells": "MT-4", "value": ">100 µM"}
{"compound": "Nc1nc2c(ncn2[C@@H]2C[C@H](CO)[C@H]2CO)c(=O)[nH]1", "cells": "MT-4", "strain": "ROD", "value": "17 µM"}
{"compound": "Cc1cn([C@H]2C[C@H](N=[N+]=[N-])[C@@H](CO)O2)c(=O)[nH]c1=O", "cells": "CEM + CEM-SS", "strain": "ROD", "value": "0.018 µM"}
{"compound": "O=C(c1ccccc1)c1ccc2c(c1)nc1n2C(c2c(Cl)cccc2Cl)SC1", "cells": "MT-4", "strain": "ROD", "value": ">28.3 µM"}
{"compound": "Cc1cn([C@H]2C[C@H](N=[N+]=[N-])[C@@H](CO)O2)c(=O)[nH]c1=O", "cells": "MT-4", "strain": "ROD", "value": "0.0008 µM"}
{"compound": "C=CCN1C(=O)c2cccn2S(=O)(=O)c2ccccc21", "cells": "MT-4", "value": ">100 µM"}
{"compound": "O=C(c1ccccc1)c1ccc2c(c1)nc1n2C(c2c(F)cccc2F)SC1", "cells": "MT-4", "strain": "ROD", "value": ">26.7 µM"}
{"compound": "Nc1ccn([C@H]2CC[C@@H](CO)O2)c(=O)n1", "cells": "MT-4", "strain": "EHO", "value": "0.1 µM"}
{"compound": "CO[C@@H]1[C@@H](O)[C@@H](O)[C@H](O)[C@H](O)[C@H]1n1ccc(N)nc1=O", "cells": "MT-4", "value": "<10 µg/mL"}
{"compound": "Cc1cn([C@H]2C[C@H](N=[N+]=[N-])[C@@H](CO)O2)c(=O)[nH]c1=O", "cells": "MT-4", "strain": "ROD", "value": "0.00062 µg/mL"}
{"compound": "Cc1cn([C@@H]2C=C[C@H](COC(=O)NCCCCNC(=O)OC[C@@H]3C=C[C@H](n4cc(C)c(=O)[nH]c4=O)O3)O2)c(=O)[nH]c1=O", "cells": "MT-4", "strain": "ROD", "value": "22.5 µM"}
{"compound": "Cc1cn([C@H]2C[C@H](N=[N+]=[N-])[C@@H](COC(=O)CCC(=O)OC[C@H]3O[C@@H]4O[C@H]5[C@H](O)[C@@H](O)[C@@H](O[C@H]6[C@H](O)[C@@H](O)[C@@H](O[C@H]7[C@H](O)[C@@H](O)[C@@H](O[C@H]8[C@H](O)[C@@H](O)[C@@H](O[C@H]9[C@H](O)[C@@H](O)[C@@H](O[C@H]3[C@H](O)[C@H]4O)O[C@@H]9CO)O[C@@H]8CO)O[C@@H]7CO)O[C@@H]6CO)O[C@@H]5CO)O2)c(=O)[nH]c1=O", "cells": "MT-4", "strain": "ROD", "value": "0.038 µg/mL"}
{"compound": "Cc1ccnc2c1NC(=O)c1cccnc1N2C1CC1", "cells": "MT-4", "strain": "EHO", "value": ">97.6 µM"}
{"compound": "Cc1cn([C@H]2C[C@H](N=[N+]=[N-])[C@@H](CO)O2)c(=O)[nH]c1=O", "cells": "MT-4", "strain": "ROD", "setting": "5 d", "value": "0.087 µM"}
{"compound": "Cc1ccc2c(c1)C(=Nc1ccc(S(=O)(=O)Nc3nc(C)cc(C)n3)cc1)C(=O)N2", "cells": "MT-4", "strain": "ROD", "value": ">125 µg/mL"}
{"compound": "O=C(O)P(=O)(O)O", "cells": "MT-4", "strain": "ROD", "value": "9.5 µg/mL"}
{"compound": "Cc1cn([C@@H]2C[C@@H](N=[N+]=[N-])[C@H](COC(=O)OC[C@H]3O[C@@H](n4cc(C)c(=O)[nH]c4=O)C[C@@H]3N=[N+]=[N-])O2)c(=O)[nH]c1=O", "cells": "MT-4", "strain": "ROD", "value": "0.0017 µM"}
{"compound": "CC(C)(C)OC(=O)[C@@H]1CCCN1C[C@H](O)[C@H](Cc1ccccc1)NC(=O)[C@H](CC(N)=O)NC(=O)OCc1ccccc1", "cells": "MT-4", "strain": "ROD", "value": "90 µg/mL"}
{"compound": "Cc1c(Sc2ccccc2)n(COCCO)c(=O)[nH]c1=O", "cells": "MT-4", "strain": "EHO", "value": ">250 µM"}
{"compound": "CCc1cc(NCc2nc3c(Cl)ccc(Cl)c3o2)c(=O)[nH]c1C", "mutations": "RT-S102L E219D", "cells": "MT-4", "strain": "EHO", "value": ">71 µM"}
{"compound": "CC(=O)O[C@@]12C[C@@H](C)[C@@]3(O)[C@@H](C=C(CO)C[C@]4(O)C(=O)C(C)=C[C@@H]34)[C@@H]1C2(C)C", "cells": "MT-4", "strain": "EHO", "value": "0.03 µg/mL"}
{"compound": "COc1c(O)c(I)c2c(c1OC)-c1c(c(I)c(O)c(OC)c1OC)C[C@H](C)[C@H](C)C2", "cells": "MT-4", "strain": "CBL-20", "value": ">16 µM"}
{"compound": "Nc1ccn([C@H]2CC[C@@H](CO)O2)c(=O)n1", "cells": "MT-4", "strain": "ROD", "value": "0.03 µg/mL"}
{"compound": "CCOP(=O)(N[C@@H](C)C(=O)OC)OC[C@H]1O[C@@H](n2cc(C)c(=O)[nH]c2=O)C[C@@H]1N=[N+]=[N-]", "cells": "MT-4", "strain": "ROD", "value": "0.64 µg/mL"}
{"compound": "Cc1cn([C@H]2C[C@H](N=[N+]=[N-])[C@@H](COC(=O)CCC(=O)OCC3OC4OC5C(COS(=O)(=O)O)OC(OC6C(COS(=O)(=O)O)OC(OC7C(COS(=O)(=O)O)OC(OC8C(COS(=O)(=O)O)OC(OC9C(COS(=O)(=O)O)OC(OC3C(OS(=O)(=O)O)C4OS(=O)(=O)O)C(OS(=O)(=O)O)C9OS(=O)(=O)O)C(OS(=O)(=O)O)C8OS(=O)(=O)O)C(OS(=O)(=O)O)C7OS(=O)(=O)O)C(OS(=O)(=O)O)C6OS(=O)(=O)O)C(OS(=O)(=O)O)C5OS(=O)(=O)O)O2)c(=O)[nH]c1=O", "cells": "MT-4", "strain": "ROD", "value": "5.17 µg/mL"}
{"compound": "CCOP(=O)(N[C@@H](CC(C)C)C(=O)OC)OC[C@H]1O[C@@H](n2cc(C)c(=O)[nH]c2=O)C[C@@H]1N=[N+]=[N-]", "cells": "MT-4", "strain": "ROD", "value": "0.2 µg/mL"}

The last 4 rows once more:

compound,mutations,cells,strain,setting,value
Nc1ccn([C@H]2CC[C@@H](CO)O2)c(=O)n1,-,MT-4,ROD,-,0.03 µg/mL
CCOP(=O)(N[C@@H](C)C(=O)OC)OC[C@H]1O[C@@H](n2cc(C)c(=O)[nH]c2=O)C[C@@H]1N=[N+]=[N-],-,MT-4,ROD,-,0.64 µg/mL
Cc1cn([C@H]2C[C@H](N=[N+]=[N-])[C@@H](COC(=O)CCC(=O)OCC3OC4OC5C(COS(=O)(=O)O)OC(OC6C(COS(=O)(=O)O)OC(OC7C(COS(=O)(=O)O)OC(OC8C(COS(=O)(=O)O)OC(OC9C(COS(=O)(=O)O)OC(OC3C(OS(=O)(=O)O)C4OS(=O)(=O)O)C(OS(=O)(=O)O)C9OS(=O)(=O)O)C(OS(=O)(=O)O)C8OS(=O)(=O)O)C(OS(=O)(=O)O)C7OS(=O)(=O)O)C(OS(=O)(=O)O)C6OS(=O)(=O)O)C(OS(=O)(=O)O)C5OS(=O)(=O)O)O2)c(=O)[nH]c1=O,-,MT-4,ROD,-,5.17 µg/mL
CCOP(=O)(N[C@@H](CC(C)C)C(=O)OC)OC[C@H]1O[C@@H](n2cc(C)c(=O)[nH]c2=O)C[C@@H]1N=[N+]=[N-],-,MT-4,ROD,-,0.2 µg/mL

ECn: concentration that inhibits the pathogen or its effect by n%. Neighbouring rows are from separate reports.